Results of unrelated studies side by side (data: NIAID ChemDB).

Common to all: tests in culture; organism: Mycobacterium bovis BCG; endpoint: MIC

Blank or dashed fields: not listed here.

{"compound": "O=C(C1CCN(c2nnc(-n3cccc3)s2)CC1)N1CCC(Cc2ccccc2)CC1", "method": "fluorescence", "result": "1.6 µM"}
{"compound": "CCCCCCSCCCCCCCCCCC#CC(=O)O", "strain": "Pasteur", "result": "9.6 µM"}
{"compound": "C/C=C(\\C)C(=O)O[C@@H]1C=C(C)CC[C@]2(O)[C@@H](C(C)C)CC(=O)[C@]12C", "strain": "Pasteur", "result": "50 µg/mL"}
{"compound": "CC(C)(C)c1ccccc1OCCCON1C(N)=NC(N)=NC1(C)C", "changes": "DHFR-overexpressing", "method": "fluorescence", "result": ">28.8 µM"}
{"compound": "C[C@H]1COC2(CCN(c3nc(=O)c4cc(C(F)(F)F)cc([N+](=O)[O-])c4s3)CC2)O1", "strain": "recG", "changes": "DprE1 mutant (E221Q)", "method": "fluorescence", "result": "0.018 µM"}
{"compound": "CCCCCCCCCCCCCCCC#CC(=O)OCCO", "strain": "Pasteur", "result": "1.9 µM"}
{"compound": "COc1cc(C(=O)O[C@H]2C[C@@]3(C)O[C@H]3C[C@@]3(C)CC[C@@](O)(C(C)C)C23)ccc1O", "strain": "Pasteur", "result": "50 µg/mL"}
{"compound": "NC(=O)NO", "method": "visual reading", "result": "8.36 µg/mL"}
{"compound": "CC1=C[C@H](OC(=O)c2ccccc2)C2[C@](C)(CC[C@@]2(O)C(C)C)C/C1=C/CO", "strain": "Pasteur", "result": "50 µg/mL"}
{"compound": "CCCCCCSCCCCCCCCCCCCC#CC(=O)O", "strain": "Pasteur", "result": "4.4 µM"}
{"compound": "CC(=O)Nc1ccc(/C=N/NC(N)=S)cc1", "strain": "Carrying pMV261-ethA", "result": "0.25 µg/mL"}
{"compound": "CC(C)[C@]1(O)CC[C@]2(C)C[C@@H]3O[C@]3(C)C[C@H](OC(=O)c3ccc(O)cc3)C21", "strain": "Pasteur", "result": "50 µg/mL"}
{"compound": "CCCCCCCCCCCCCC#CC(=O)OCCO", "strain": "Pasteur", "result": "1 µM"}
{"compound": "CC(=O)Nc1ccc(/C=N/n2cn[nH]c2=S)cc1", "method": "broth dilution / resazurin", "setting": "24 h", "result": "125 µg/mL"}
{"compound": "CCCCCCCCC#CCCCCCCC#CC(=O)O", "strain": "Pasteur", "result": "5.4 µM"}
{"compound": "NC(=S)N/N=C/c1cccnc1", "strain": "NCTC 5692 ethR::hyg", "result": "5 µg/mL"}
{"compound": "CCc1ccccc1OCCCON1C(N)=NC(N)=NC1(C)C", "changes": "Thymidylate synthase (thyA) overexpressing", "method": "fluorescence", "result": "<1.4 µM"}
{"compound": "O=C(NCCOCCOCCNC(=O)c1ccc2c(c1)B(O)OC2)c1ccc2c(c1)B(O)OC2", "method": "visual reading / absorbance", "result": "780 µM"}
{"compound": "Cc1c(CN2CCN(C)CC2)cc(-c2ccc(Cl)cc2)n1-c1ccc(Cl)cc1", "strain": "M1", "changes": "L320R E466K I585V", "result": "15.04 µM"}
{"compound": "CCCCCCCCCCCCCC#CCC#CC(=O)O", "strain": "Pasteur", "result": "5.4 µM"}
{"compound": "CCc1ccc(-c2cc(CN3CCOCC3)c(C)n2-c2ccc(F)cc2)cc1", "strain": "M8", "changes": "L320P S258G", "result": "0.63 µM"}
{"compound": "C#CCCCCCCCCCCCCC#CC(=O)O", "strain": "Pasteur", "result": "1.5 µM"}

2 of the rows above, restated:

compound,strain,changes,method,setting,result
CCCCCCCCC#CCCCCCCC#CC(=O)O,Pasteur,,,,5.4 µM
O=C(NCCOCCOCCNC(=O)c1ccc2c(c1)B(O)OC2)c1ccc2c(c1)B(O)OC2,,,visual reading / absorbance,,780 µM

Conditions beyond the fields shown may differ between rows.